Anti-infective test results gathered from many reports (values: NIAID ChemDB through PubChem).

Common to all: tests in culture; organism: Varicella zoster virus; cells: HEL; read-out: EC50

Blank or dashed fields: not listed here.

compound,strain,method,value
CCCCCCCCc1cc2cn([C@H]3C[C@H](O)[C@@H](CO)O3)c(=O)nc2o1,Strains YS and Oka,plaque count,0.016 µM
Nc1nc(N)c2ncn(C[C@H]3CC[C@@H](CO)C3)c2n1,YS,plaque count,>50 µg/mL
Nc1nc2c(ncn2CCC(CO)CO)c(=O)[nH]1,BVaraU-resistant,plaque count,16.4 µg/mL
Nc1ncnc2c1ncn2CCOCP(=O)(O)O,Oka CF1368-resistant,cytopathic effect,14.3 µM
Nc1nc(OCCOCP(=O)(O)O)cc(OCCOCP(=O)(O)O)n1,YS/R (TK-),cytopathic effect,50 µg/mL
Nc1nc2c(ncn2CCC(CO)CO)c(=O)[nH]1,YS,plaque count,3.3 µM
Nc1ncnc2c1ncn2C[C@H]1COP(=O)(O)CO1,13 isolates,plaque count,0.34 µM
CCCCCCCCc1cc2cn([C@H]3C[C@H](O)[C@@H](CO)S3)c(=O)nc2o1,Strains YS and Oka,plaque count,0.016 µM
CCc1cn([C@H]2C[C@H](O)[C@@H](CO)O2)c(=O)[nH]c1=O,OKA YS,plaque count,43 µM
C[C@H](COc1cc(N)nc(N)n1)OCP(=O)(O)O,07/1 (TK-),cytopathic effect,5.7 µg/mL
C=Cc1cn([C@@H]2O[C@H](CO)[C@@H](O)[C@@H]2F)c(=O)[nH]c1=O,,plaque count,0.31 µM
Nc1nc2c(ncn2[C@@H]2O[C@H](CO)[C@H]2CO)c(=O)[nH]1,OKA (TK+),plaque count,0.23 µM
O=c1ccn([C@H]2C[C@H](O)[C@@H](CO)S2)c(=O)[nH]1,OKA YS,plaque count,35 µM
O=c1[nH]c(=O)n([C@H]2C[C@H](O)[C@@H](CO)O2)cc1-c1ccc(Cl)s1,OKA (TK+),plaque count,0.21 µM
Nc1nc2c(ncn2[C@H]2C=C[C@@H](CO)CC2)c(=O)[nH]1,07/1 (TK-),plaque count,5.8 µg/mL
CCc1cn([C@@H]2O[C@H](CO)[C@@H](O)[C@@H]2O)c(=O)[nH]c1=O,,plaque count,>588 µM
O=c1[nH]c(=O)n([C@H]2C[C@H](O)[C@@H](CO)S2)cc1/C=C/Br,YS,plaque count,0.006 µM
Nc1ncc2c(ncn2COC(CO)CO)n1,YS (TK+),plaque count,0.19 µM
Nc1nc(N)c2nnn(C[C@H]3CC[C@@H](CO)C3)c2n1,YS/R (TK-),plaque count,40 µg/mL
Nc1ccn(C[C@@H](CO)OCP(=O)(O)O)c(=O)n1,PMEDAP-resistant,plaque count,0.082 µg/mL
Cc1cn([C@@H]2O[C@H](CO)[C@@H](O)[C@@H]2O)c(=O)[nH]c1=O,,plaque count,1.43 µM
Nc1nc(N)c2ncn(CCOCP(=O)(O)O)c2n1,PFA-resistant/A,plaque count,4.5 µg/mL
O=c1[nH]c(=O)n([C@H]2C[C@H](O)[C@@H](CO)O2)cc1/C=C/Br,OKA YS,plaque count,0.004 µM
Nc1nc(Cl)c2nnn(C[C@H]3CC[C@@H](CO)C3)c2n1,07/1 (TK-),plaque count,>50 µg/mL
Nc1nc2c(ncn2[C@@H]2C=C[C@H](CO)CC2)c(=O)[nH]1,YS/R (TK-),plaque count,2.8 µg/mL
C[C@H]1C[C@@H](n2cnc3c(N)ncnc32)[C@H](O)[C@@H]1O,YS/R (TK-),cytopathic effect,4 µg/mL
Nc1nc2c(nnn2C[C@H]2CC[C@@H](CO)C2)c(=O)[nH]1,YS/R (TK-),plaque count,>200 µg/mL
O=c1ccn([C@H]2C[C@H](O)[C@@H](CO)O2)c(=O)[nH]1,OKA YS,plaque count,>250 µM
O=c1[nH]c(=O)n([C@@H]2O[C@H](CO)[C@@H](O)[C@@H]2O)cc1/C=C/Br,PFA-resistant/B,plaque count,0.000095 µg/mL
O=c1[nH]c(=O)n([C@H]2C[C@H](O)[C@@H](CO)O2)cc1C1CCC1,OKA YS,plaque count,>170 µM
Cc1cn([C@@H]2O[C@H](CO)[C@@H](O)[C@@H]2F)c(=O)[nH]c1=O,,plaque count,0.108 µM

A second listing of 4 rows from above:

compound,strain,method,value
Cc1cn([C@@H]2O[C@H](CO)[C@@H](O)[C@@H]2F)c(=O)[nH]c1=O,,plaque count,0.108 µM
C[C@H](COc1cc(N)nc(N)n1)OCP(=O)(O)O,07/1 (TK-),cytopathic effect,5.7 µg/mL
O=c1[nH]c(=O)n([C@H]2C[C@H](O)[C@@H](CO)S2)cc1/C=C/Br,YS,plaque count,0.006 µM
O=c1[nH]c(=O)n([C@H]2C[C@H](O)[C@@H](CO)O2)cc1/C=C/Br,OKA YS,plaque count,0.004 µM

ECn is the concentration giving n% inhibition of infection, replication or growth. Rows are shuffled and stem from different studies.